From PMC5651824, “Membrane binding of the insertion sequence of Proteus vulgaris L-amino acid deaminase stabilizes protein structure and increases catalytic activity” (Scientific Reports, 2017)

System: N[C@@H](Cc1ccccc1)C(=O)O
Test: purified protein
Settings: without membrane, 50 mM potassium phosphate pH 7.5, 37 °C, 5 µM enzyme, 5 min

FL-pvLAAD (Proteus vulgaris; F355A/I345A/I352A/L347A/L351A)
Km: 10.87 ± 2.25 mM
